Measured values from several laboratories, pooled; numbers as filed in NIAID ChemDB.

Shared fields: whole-cell or culture tests; organism: HIV-1; cell line: MT-2; endpoint: EC50

Lines come from different laboratories, so protocols vary. ECn is the concentration giving n% inhibition of infection, replication or growth. An empty or dashed field is not shown. Two numbers with a dash give a range or band.

CC(C)NC(=O)[C@H]1C[C@@H](NC(=O)N[C@]23CC[C@@H](C4(C)CC4)[C@@H]2[C@H]2CC[C@@H]4[C@@]5(C)CC=C(c6ccc(C(=O)O)cc6)C(C)(C)[C@@H]5CC[C@@]4(C)[C@]2(C)CC3)C1(C)C ; strain or isolate: 92HT599 ; method: p24 / ELISA ; value: ≤0.01 µM
COC(=O)[C@H](CCCCNC(=O)/C=C/c1cc(OC)c(OC)c(OC)c1)NC(=O)/C=C/c1cc(OC)c(OC)c(OC)c1 ; strain or isolate: LAI ; method: cytopathic effect / neutral red ; value: >31.25 µM
COc1cccc2oc(-c3ccccc3C(=O)N3CC=C4C(C)(C)C(c5ccc(C(=O)O)cc5)=CC[C@]4(C)C3)nc12 ; strain or isolate: NL4-3 ; changes: Renilla luciferase reporter Gag P373S ; method: luciferase / luminescence ; value: 0.5–3 µM
[N-]=[N+]=N[C@H]1[C@@H](OCP(=O)(O)O)CO[C@H]1n1cnc2c(N)ncnc21 ; strain or isolate: IIIB ; method: cytopathic effect / XTT ; value: >200 µM
COCCOCCOC1CCN(C(=O)N[C@]23CC[C@@H](C4(C)CC4)[C@@H]2[C@H]2CC[C@@H]4[C@@]5(C)CC=C(c6ccc(C(=O)O)cc6)C(C)(C)[C@@H]5CC[C@@]4(C)[C@]2(C)CC3)CC1 ; strain or isolate: 92HT599 ; method: p24 / ELISA ; value: ≤0.01 µM
CC1(C)C(c2ccc(C(=O)O)cc2)=CC[C@]2(C)CN(C(=O)c3cccc(C(=O)C4CC=C5C(C)(C)C(c6ccc(C(=O)O)cc6)=CC[C@]5(O)C4)c3)CC=C12 ; strain or isolate: NL4-3 ; changes: Renilla luciferase reporter Gag P373S ; method: luciferase / luminescence ; value: <0.5 µM
C=C(C)[C@@H]1CC[C@]2(NC(=O)N[C@@H]3C[C@H](C(=O)N4CCCCC4)C3(C)C)CC[C@]3(C)[C@H](CC[C@@H]4[C@@]5(C)CC=C(c6ccc(C(=O)O)cc6)C(C)(C)[C@@H]5CC[C@]43C)[C@@H]12 ; strain or isolate: 92HT599 ; method: p24 / ELISA ; value: 0.01001–0.05 µM
COc1ccccc1N1C(=O)/C(=C/c2ccc(-c3cccc(C(=O)O)c3)o2)SC1=S ; strain or isolate: IIIB ; method: cytopathic effect ; value: 2.65 µM
C=C1CC[C@@H](OC(C)=O)[C@@]2(C)C[C@@H](OC(C)=O)C3=C(C(C)C)CC[C@]3(C)C[C@]12O ; strain or isolate: IIIB ; method: MTT ; value: 0.35 µM
COc1ccccc1N1C(=O)S/C(=C\c2ccc(-c3cccc(C(=O)O)c3)o2)C1=O ; strain or isolate: IIIB ; method: cytopathic effect ; value: 1.138 µM
O=C(O)c1cc(-n2cccc2)ccc1Cl ; strain or isolate: SF2 X4R5 CLADE B ; method: p24 ; value: 4.75 µM
COC(=O)C(CCNC(=O)c1ccc(O)c(O)c1)NC(=O)c1ccc(O)c(O)c1 ; strain or isolate: LAI ; method: cytopathic effect / neutral red ; value: >62.5 µM
COCCOCCN1CCN(C(=O)N[C@]23CC[C@@H](C4(C)CC4)[C@@H]2[C@H]2CC[C@@H]4[C@@]5(C)CC=C(c6ccc(C(=O)O)cc6)C(C)(C)[C@@H]5CC[C@@]4(C)[C@]2(C)CC3)CC1 ; strain or isolate: 92HT599 ; method: p24 / ELISA ; value: ≤0.01 µM
COc1ccc2c(c1)CCC/C2=N\OC(=O)Nc1ccccc1-c1ccccc1 ; strain or isolate: IIIB ; method: cytopathic effect / XTT / ELISA ; value: >100 µg/mL
C=C1[C@H](O)[C@@H](CO)O[C@@H]1n1cnc(N)nc1=O ; method: cytopathic effect / MTT ; value: >100 µM
CC1(C)C(c2ccc(C(=O)O)cc2)=CC[C@]2(C)CN(c3ncc(Br)s3)CC=C12 ; strain or isolate: NL4-3 ; changes: Renilla luciferase reporter Gag P373S ; method: luciferase / luminescence ; value: 0.27 µM
C=C1[C@H](n2ncc(N)nc2=O)O[C@H](CO)[C@H]1O ; method: cytopathic effect / MTT ; value: >100 µM
Nc1nc(NC2CC2)c2ncn([C@H]3C=C[C@@H](CO)C3)c2n1 ; strain or isolate: Clinical isolate ; changes: D67N/T69N/K70R/A98G/M184V/G190S/T215F/K219Q ; method: recombinant virus assay ; value: 0.748 µM
C=C1[C@H](O)[C@@H](CO)O[C@@H]1n1cnc2c(=O)[nH]c(N)cc21 ; method: cytopathic effect / MTT ; value: >100 µM
COc1cc(N=Nc2cc(S(=O)(=O)O)cc3cc(S(=O)(=O)O)cc(O)c23)c(C)cc1Nc1nc(Nc2ccncc2)nc(Nc2ccncc2)n1 ; strain or isolate: IIIB ; method: p24 ; value: 15.51 µM
CC(C)C1=C2[C@H]3CC[C@@H]4[C@@]5(C)CC[C@H](OC(=O)[C@H]6C[C@@H](C(=O)O)C6(C)C)C(C)(C)[C@@H]5CC[C@@]4(C)[C@]3(C)CC[C@@]2(CCNCc2ccc(Cl)cc2OCCN2CCOCC2)CC1=O ; strain or isolate: 92HT599 ; method: p24 / ELISA ; value: <1 µM
CC(C)(CN1CCCCC1)NC(=O)N[C@]12CC[C@@H](C3(C)CC3)[C@@H]1[C@H]1CC[C@@H]3[C@@]4(C)CC=C(c5ccc(C(=O)O)cc5)C(C)(C)[C@@H]4CC[C@@]3(C)[C@]1(C)CC2 ; strain or isolate: 92HT599 ; method: p24 / ELISA ; value: ≤0.01 µM
COc1ccc(S(=O)(=O)O)cc1N=Nc1c(S(=O)(=O)O)cc2cc(Nc3nc(Nc4ccccc4)nc(Nc4cc(C)c(N=Nc5cc(S(=O)(=O)O)cc6cc(S(=O)(=O)O)cc(O)c56)cc4OC)n3)ccc2c1O ; strain or isolate: IIIB ; method: cytopathic effect / XTT ; value: 3.71 µM
CC1([C@@H]2CC[C@]3(NC(=O)N4CCC(CO)CC4)CC[C@]4(C)[C@H](CC[C@@H]5[C@@]6(C)CC=C(c7ccc(C(=O)O)cc7)C(C)(C)[C@@H]6CC[C@]54C)[C@@H]23)CC1 ; strain or isolate: 92HT599 ; method: p24 / ELISA ; value: ≤0.01 µM
O=C(O)c1cc(-c2ccc(/C=C3\SC(=S)N(c4cccc([N+](=O)[O-])c4)C3=O)o2)ccc1Cl ; strain or isolate: IIIB ; method: cytopathic effect ; value: 1.046 µM
CC(C)C1=C2[C@H]3CC[C@@H]4[C@@]5(C)CC[C@H](OC(=O)[C@H]6C[C@@H](C(=O)O)C6(C)C)C(C)(C)[C@@H]5CC[C@@]4(C)[C@]3(C)CC[C@@]2(CCNC(=O)c2ccccc2)CC1=O ; strain or isolate: 92HT599 ; method: p24 / ELISA ; value: <1 µM
O=C(NC(CNC(=O)c1ccc(O)c(O)c1O)C(=O)O)c1cc(O)c(O)c(O)c1 ; strain or isolate: LAI ; method: cytopathic effect / neutral red ; value: 3 µM
O=C(O)c1cccc(-c2ccc(/C=C3\SC(=S)N(Cc4ccco4)C3=O)o2)c1 ; strain or isolate: IIIB ; method: cytopathic effect ; value: 42.08 µM
CC(C)C1=C2[C@H]3CC[C@@H]4[C@@]5(C)CC[C@H](OC(=O)[C@H]6C[C@@H](C(=O)O)C6(C)C)C(C)(C)[C@@H]5CC[C@@]4(C)[C@]3(C)CC[C@@]2(CC(=O)NCC(C)(C)NC(=O)c2ccc3ccccc3n2)CC1=O ; strain or isolate: 92HT599 ; method: p24 / ELISA ; value: <1 µM
Cc1c(C(=O)O)cccc1-c1ccc(/C=C2\SC(=S)N(c3cccc(C(F)(F)F)c3)C2=O)o1 ; strain or isolate: IIIB ; method: cytopathic effect ; value: 1.571 µM
Cc1ccc(C(=O)NC(C)(C)CNC[C@H](O)[C@@]23CC[C@]4(C)[C@H](CC[C@@H]5[C@@]6(C)CC[C@H](OC(=O)[C@H]7C[C@@H](C(=O)O)C7(C)C)C(C)(C)[C@@H]6CC[C@]54C)C2=C(C(C)C)C(=O)C3)cn1 ; strain or isolate: 92HT599 ; method: p24 / ELISA ; value: <1 µM
C#C[C@@]1(CO)C=C[C@H](n2cc(C)c(=O)[nH]c2=O)O1 ; method: cytopathic effect ; value: 0.25 µM
CC(=O)NCC[C@@]12CC[C@]3(C)[C@H](CC[C@@H]4[C@@]5(C)CC[C@H](OC(=O)[C@H]6C[C@@H](C(=O)O)C6(C)C)C(C)(C)[C@@H]5CC[C@]43C)C1=C(C(C)C)C(=O)C2 ; strain or isolate: 92HT599 ; method: p24 / ELISA ; value: <1 µM
Nc1ncnc2c1ncn2[C@H]1C[C@H](OCP(=O)(O)O)CO1 ; strain or isolate: IIIB ; method: cytopathic effect / XTT ; value: >200 µM
O=C(/C=C/c1cc(O)c(O)c(O)c1)NCCCC[C@H](NC(=O)/C=C/c1cc(O)c(O)c(O)c1)C(=O)O ; strain or isolate: LAI ; method: cytopathic effect / neutral red ; value: 1.7 µM
O=C(Cn1nc(C(F)F)cc1C1CC1)N[C@@H](Cc1cc(F)cc(F)c1)c1nc2nc(-c3ncccn3)ccc2c(=O)n1-c1ccc(Cl)c2c(NS(=O)(=O)C3CC3)nn(CC(F)F)c12 ; strain or isolate: NL4-3 ; method: luciferase ; value: 0.0004 µM
COC(=O)C(CCCCNC(=O)/C=C/c1ccc(O)c(O)c1)NC(=O)/C=C/c1ccc(O)c(O)c1 ; strain or isolate: LAI ; method: cytopathic effect / neutral red ; value: >62.5 µM
CCCc1cc(=O)oc2c3c(c4c(c12)OC(C)(C)CC4)O[C@@H](C)[C@H](C)[C@@H]3O ; strain or isolate: IIIB ; method: cytopathic effect / XTT ; value: 0.8 µM
O=C(NCCCC[C@H](NC(=O)c1cc(O)c(O)c(O)c1)C(=O)O)c1cc(O)c(O)c(O)c1 ; strain or isolate: LAI ; method: cytopathic effect / neutral red ; value: 7.6 µM
CC(C)C1=C2[C@H]3CC[C@@H]4[C@@]5(C)CC[C@H](OC(=O)[C@H]6C[C@@H](C(=O)O)C6(C)C)C(C)(C)[C@@H]5CC[C@@]4(C)[C@]3(C)CC[C@@]2(CCNC(=O)c2csc(N)n2)CC1=O ; strain or isolate: 92HT599 ; method: p24 / ELISA ; value: <1 µM
COC(=O)C(CNC(=O)/C=C/c1ccc(O)c(O)c1)NC(=O)/C=C/c1ccc(O)c(O)c1 ; strain or isolate: LAI ; method: cytopathic effect / neutral red ; value: 58 µM
CC(C)C1=C2[C@H]3CC[C@@H]4[C@@]5(C)CC[C@H](OC(=O)[C@H]6C[C@@H](C(=O)O)C6(C)C)C(C)(C)[C@@H]5CC[C@@]4(C)[C@]3(C)CC[C@@]2(CCNCC(C)(C)NC(=O)c2ccc3nc[nH]c3c2)CC1=O ; strain or isolate: 92HT599 ; method: p24 / ELISA ; value: <1 µM
COc1cc([N+](=O)[O-])c(S(=O)(=O)[O-])cc1N=N/C(=N\Nc1cc(S(=O)(=O)[O-])c([N+](=O)[O-])cc1OC)C(=O)Nc1ccccc1 ; strain or isolate: SF2 R5X4 ; method: p24 ; value: 22.64 µM
O=C(NCCC(NC(=O)c1ccc(O)c(O)c1)C(=O)O)c1ccc(O)c(O)c1 ; strain or isolate: LAI ; method: cytopathic effect / neutral red ; value: >62.5 µM

For reference, 3 entries again:

compound	strain or isolate	changes	method	value
CC(C)C1=C2[C@H]3CC[C@@H]4[C@@]5(C)CC[C@H](OC(=O)[C@H]6C[C@@H](C(=O)O)C6(C)C)C(C)(C)[C@@H]5CC[C@@]4(C)[C@]3(C)CC[C@@]2(CCNCc2ccc(Cl)cc2OCCN2CCOCC2)CC1=O	92HT599	-	p24 / ELISA	<1 µM
O=C(NCCCC[C@H](NC(=O)c1cc(O)c(O)c(O)c1)C(=O)O)c1cc(O)c(O)c(O)c1	LAI	-	cytopathic effect / neutral red	7.6 µM
CC(C)C1=C2[C@H]3CC[C@@H]4[C@@]5(C)CC[C@H](OC(=O)[C@H]6C[C@@H](C(=O)O)C6(C)C)C(C)(C)[C@@H]5CC[C@@]4(C)[C@]3(C)CC[C@@]2(CCNC(=O)c2csc(N)n2)CC1=O	92HT599	-	p24 / ELISA	<1 µM